# Experimental data reported in PubChem BioAssay AID1117282 (The Scripps Research Institute Molecular Screening Center, 2014).
# Amino acid sequences for entries named in this document (tags omitted).
# UniProt P86926, whole entry: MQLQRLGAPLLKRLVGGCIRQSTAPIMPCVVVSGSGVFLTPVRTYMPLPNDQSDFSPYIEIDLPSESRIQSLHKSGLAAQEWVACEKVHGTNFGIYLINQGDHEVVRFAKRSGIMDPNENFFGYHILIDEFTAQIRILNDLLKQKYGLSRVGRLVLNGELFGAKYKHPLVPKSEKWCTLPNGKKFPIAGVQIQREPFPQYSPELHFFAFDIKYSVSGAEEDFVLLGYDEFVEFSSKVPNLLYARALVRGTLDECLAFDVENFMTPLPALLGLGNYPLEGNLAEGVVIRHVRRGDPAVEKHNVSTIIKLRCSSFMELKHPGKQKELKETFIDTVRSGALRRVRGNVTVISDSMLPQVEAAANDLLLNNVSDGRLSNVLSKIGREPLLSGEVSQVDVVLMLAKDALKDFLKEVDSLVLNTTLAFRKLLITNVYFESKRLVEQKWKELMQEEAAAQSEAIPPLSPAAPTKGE
# This is a selection; strong and weak results do not stand in their true shares. Active and inactive are the calls of the source.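 The calls were made as follows: active = mean inhibition across replicates above a set limit taken from the earlier primary screen (cut at about 11% in these data); inactive = the rest.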
# Target: RNA-editing ligase 1, mitochondrial (Trypanosoma brucei brucei) (UniProt P86926)
# Assay: TbREL1 RNA ligase inhibitors, confirmation, biochemical, FRET fluorescence, triplicate (AID 1117282);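 also: 0% = REL1 with substrate and DMSO and 100% = REL1 plus control inhibitor NSC42067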
# Conditions: TbREL1 RNA ligation, at 9.66 µM, active compounds read high
smiles,measurement,value
N#Cc1ccc(C(=O)NCC2(N3CCCCC3)CCCCC2)cc1,inhibition,inactive: -0.22%
